In patent publication US20250243261A1 (CZ BIOHUB SF, published 2025):

Columns and labels:
[1] = target: SARS-CoV-2 Beta Spike on pseudotyped lentivirus (SARS-CoV-2 Beta variant); assay: cell-based or functional assay
[2] = target: SARS-CoV-2 D614G Spike on pseudotyped lentivirus (SARS-CoV-2); assay: cell-based or functional assay

Binder | Beta pseudotyped lentivirus IC50 [1] [µg/mL] | D614G pseudotyped lentivirus IC50 [2] [µg/mL]
C143 WT IgG (antibody, V domains shown) VH: EVQLVESGGGLVQPGGSLRLSCAASGFSVSTKYMTWVRQAPGKGLEWVSVLYSGGSDYYADSVKGRFTISRDNSKNALYLQMNSLRVEDTGVYYCARDSSEVRDHPGHPGRSVGAFDIWGQGTMVTVSS VL: QSALTQPASVSGSPGQSITISCTGTSNDVGSYTLVSWYQQYPGKAPKLLIFEGTKRSSGISNRFSGSKSGNTASLTISGLQGEDEADYYCCSYAGASTFVFGGGTKLTVL | 6000 | 1400
C143 VL T33N-G53V IgG (antibody, V domains shown) VH: EVQLVESGGGLVQPGGSLRLSCAASGFSVSTKYMTWVRQAPGKGLEWVSVLYSGGSDYYADSVKGRFTISRDNSKNALYLQMNSLRVEDTGVYYCARDSSEVRDHPGHPGRSVGAFDIWGQGTMVTVSS VL: QSALTQPASVSGSPGQSITISCTGTSNDVGSYNLVSWYQQYPGKAPKLLIFEVTKRSSGISNRFSGSKSGNTASLTISGLQGEDEADYYCCSYAGASTFVFGGGTKLTVL | 300 | 80
